Results published in patent publication US20050085441A1, “Use of soluble monovalent oligosaccharides as inhibitors of HIV-1 fusion and replication” (priority 2002, published 2005).

Test system: HIV-1 M-tropic strain Ba-L
Assay: Replication of strain Ba-L in MT-2 cell clone transfected with CCR5
Assay type: cell-based
Settings: MT-2 cell clone transfected with CCR5 co-receptor

SMILES | inhibition of viral replication of strain Ba-L
OC[C@H]1O[C@H](O[C@@H]2[C@H](O)[C@@H](O)[C@H](O[C@H]3[C@H](O)[C@@H](O)C(O)O[C@@H]3CO)O[C@@H]2CO)[C@H](O)[C@@H](O)[C@H]1O (stereo partly drawn) [globotriose, galactose α1-4galactose β1-4glucose] | not inhibitory
OC[C@H]1O[C@@H](O[C@H]2[C@H](O)[C@@H](O)[C@H](O)O[C@@H]2CO)[C@H](O)[C@@H](O)[C@H]1O [lactose, o-β-D-galactopyranosyl-(1-4)-β-D-glucopyranose] | not inhibitory
